Target: T1, MOR (Rattus norvegicus, UniProt P33535)
T1 construct: Membranes were prepared from Sprague–Dawley rat brains or guinea-pig brains; from tissue; host or cells: Sprague-Dawley rat brain
Experiment: Competition binding, [3H]DAMGO, rat brain membranes
Conditions: ratio of Ki values

Sequences of proteins named here, by UniProt entry; tags and fusion partners are left off.
UniProt P33535, whole entry: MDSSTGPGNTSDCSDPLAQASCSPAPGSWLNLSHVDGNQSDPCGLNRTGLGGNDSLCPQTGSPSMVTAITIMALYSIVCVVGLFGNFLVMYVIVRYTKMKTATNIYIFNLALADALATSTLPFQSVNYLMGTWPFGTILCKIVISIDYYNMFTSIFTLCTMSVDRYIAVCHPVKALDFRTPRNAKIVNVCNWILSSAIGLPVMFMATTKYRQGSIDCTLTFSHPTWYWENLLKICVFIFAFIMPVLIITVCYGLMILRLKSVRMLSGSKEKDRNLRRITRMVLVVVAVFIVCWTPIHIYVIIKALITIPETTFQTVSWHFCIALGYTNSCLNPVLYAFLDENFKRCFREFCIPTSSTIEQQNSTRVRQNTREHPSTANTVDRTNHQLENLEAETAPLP

CO[C@@]12CCC(=O)[C@@H]3Oc4c(O)ccc5c4[C@@]31CCN(C)[C@@H]2C5 [14-OMO, 14-O-methyloxymorphone, reference compound]
Selectivity KOR/MOR: 102
